{"sequences": {"note": "The chains behind the UniProt entries cited, without tags or fusion partners. Residues count along the entry.", "UniProt O68183, 1-301": "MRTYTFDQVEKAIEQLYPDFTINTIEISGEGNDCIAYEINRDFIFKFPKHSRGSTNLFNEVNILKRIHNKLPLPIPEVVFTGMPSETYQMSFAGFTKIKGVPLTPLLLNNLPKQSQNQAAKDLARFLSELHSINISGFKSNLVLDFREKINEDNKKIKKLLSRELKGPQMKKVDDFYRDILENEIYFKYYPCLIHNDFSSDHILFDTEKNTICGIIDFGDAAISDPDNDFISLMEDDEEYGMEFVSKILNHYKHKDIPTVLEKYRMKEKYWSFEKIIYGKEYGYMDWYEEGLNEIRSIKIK"}, "source": "paper PMC12678819", "about": "“Targeting bacterial kinases as a strategy to counteract antibiotic resistance” (2025)", "key": {"APH(2”)-IVa [1]": {"target": "T1, APH(2”)-IVa (Enterococcus casseliflavus, UniProt O68183)", "experiment": "Pyruvate Kinase-Lactate Dehydrogenase-coupled enzyme assay", "conditions": "for Inhibition (%) at 10 µM: 10 µM compound; for pKi: 25°C, competitive vs MgATP, 100 µM kanamycin A"}, "E. coli ΔtolC strain": {"tested_on": "E. coli ΔtolC strain", "experiment": "Cellular uptake assay", "conditions": "single replicate"}, "K. pneumoniae ATCC 43816": {"tested_on": "K. pneumoniae ATCC 43816", "experiment": "Cellular uptake assay", "conditions": "single replicate"}, "E. coli ATCC 25922": {"tested_on": "E. coli ATCC 25922", "experiment": "Cellular uptake assay", "conditions": "single replicate"}, "[2]": {"tested_on": "S. aureus ATCC 33591 (MRSA)", "experiment": "Cellular uptake assay", "conditions": "single replicate"}, "APH(2”)-IVa [3]": {"target": "T1, APH(2”)-IVa", "experiment": "Thermal shift assay", "conditions": "500 µM compound"}, "[4]": {"tested_on": "Pseudomonas aeruginosa C0214", "experiment": "Bacterial growth / checkerboard assay with kanamycin A"}, "P. aeruginosa ATCC 27853": {"tested_on": "P. aeruginosa ATCC 27853", "experiment": "Cellular uptake assay", "conditions": "single replicate"}}, "note": "pKi: −log10 of the molar value. “And” between values parts separate entries of the source, which are not always exact repeats. Equal entries are not always repeated.", "data": [{"smiles": "Clc1cnc2[nH]ccc2c1-c1c[nH]nn1", "values": [{"measurement": "Inhibition (%) at 10 µM", "setting": "APH(2”)-IVa [1]", "result": 83, "unit": "%"}, {"measurement": "pKi", "setting": "APH(2”)-IVa [1]", "result": 5.89}, {"measurement": "concentration in cell lysate", "setting": "E. coli ΔtolC strain", "result": "0.425 ng/mL and 0.2 ng/mL and 0.179 ng/mL"}, {"measurement": "concentration in membrane", "setting": "E. coli ΔtolC strain", "result": "2.79 ng/mL and 1.94 ng/mL and 1.57 ng/mL"}, {"measurement": "concentration in periplasm", "setting": "E. coli ΔtolC strain", "result": "0.447 ng/mL and 0.264 ng/mL and 0.604 ng/mL"}, {"measurement": "concentration in cell lysate", "setting": "K. pneumoniae ATCC 43816", "result": 0.588, "unit": "ng/mL"}, {"measurement": "concentration in cytoplasm", "setting": "E. coli ATCC 25922", "result": "0.193 ng/mL and 0.131 ng/mL"}, {"measurement": "concentration in membrane", "setting": "E. coli ATCC 25922", "result": "0.995 ng/mL and 2 ng/mL and 1.05 ng/mL"}, {"measurement": "concentration in cytoplasm", "setting": "[2]", "result": 0.119, "unit": "ng/mL"}, {"measurement": "concentration in membrane", "setting": "[2]", "result": "0.696 ng/mL and 0.308 ng/mL"}, {"measurement": "concentration in periplasm", "setting": "[2]", "result": "0.313 ng/mL and 0.135 ng/mL"}, {"measurement": "ΔTm (°C) at 500 µM", "setting": "APH(2”)-IVa [3]", "result": 1.31, "unit": "°C"}]}, {"smiles": "OCCCn1cc(-c2c(Cl)cnc3[nH]ccc23)nn1", "values": [{"measurement": "Inhibition (%) at 10 µM", "setting": "APH(2”)-IVa [1]", "result": 88, "unit": "%"}, {"measurement": "pKi", "setting": "APH(2”)-IVa [1]", "result": 6.34}, {"measurement": "OD600nm", "setting": "[4]; inhibitor 125 µM, KanaA 0 µg.mL-1", "result": 0.3176}, {"measurement": "OD600nm", "setting": "[4]; inhibitor 125 µM, KanaA 8 µg.mL-1", "result": 0.2851}, {"measurement": "OD600nm", "setting": "[4]; inhibitor 125 µM, KanaA 16 µg.mL-1", "result": 0.2911}, {"measurement": "OD600nm", "setting": "[4]; inhibitor 125 µM, KanaA 32 µg.mL-1", "result": 0.2169}, {"measurement": "OD600nm", "setting": "[4]; inhibitor 125 µM, KanaA 64 µg.mL-1", "result": 0.0129}, {"measurement": "OD600nm", "setting": "[4]; inhibitor 125 µM, KanaA 128 µg.mL-1", "result": -0.00055}, {"measurement": "OD600nm", "setting": "[4]; inhibitor 125 µM, KanaA 256 µg.mL-1", "result": -0.0006}, {"measurement": "OD600nm", "setting": "[4]; inhibitor 125 µM, KanaA 512 µg.mL-1", "result": -0.00045}, {"measurement": "OD600nm", "setting": "[4]; inhibitor 125 µM, KanaA 1024 µg.mL-1", "result": -0.00035}, {"measurement": "OD600nm", "setting": "[4]; inhibitor 125 µM, KanaA 2048 µg.mL-1", "result": 0.00075}, {"measurement": "OD600nm", "setting": "[4]; inhibitor 125 µM, KanaA 4096 µg.mL-1", "result": 0.0067}, {"measurement": "OD600nm", "setting": "[4]; inhibitor 250 µM, KanaA 0 µg.mL-1", "result": 0.3249}, {"measurement": "OD600nm", "setting": "[4]; inhibitor 250 µM, KanaA 8 µg.mL-1", "result": 0.2882}, {"measurement": "OD600nm", "setting": "[4]; inhibitor 250 µM, KanaA 16 µg.mL-1", "result": 0.2992}, {"measurement": "OD600nm", "setting": "[4]; inhibitor 250 µM, KanaA 32 µg.mL-1", "result": 0.2261}, {"measurement": "OD600nm", "setting": "[4]; inhibitor 250 µM, KanaA 64 µg.mL-1", "result": 0.0142}, {"measurement": "OD600nm", "setting": "[4]; inhibitor 250 µM, KanaA 128 µg.mL-1", "result": -0.0005}, {"measurement": "OD600nm", "setting": "[4]; inhibitor 250 µM, KanaA 256 µg.mL-1", "result": -0.0014}, {"measurement": "OD600nm", "setting": "[4]; inhibitor 250 µM, KanaA 512 µg.mL-1", "result": -0.0009}, {"measurement": "OD600nm", "setting": "[4]; inhibitor 250 µM, KanaA 1024 µg.mL-1", "result": -0.0007}, {"measurement": "OD600nm", "setting": "[4]; inhibitor 250 µM, KanaA 2048 µg.mL-1", "result": -0.0002}, {"measurement": "OD600nm", "setting": "[4]; inhibitor 250 µM, KanaA 4096 µg.mL-1", "result": 0.0043}, {"measurement": "OD600nm", "setting": "[4]; inhibitor 500 µM, KanaA 0 µg.mL-1", "result": 0.3268}, {"measurement": "OD600nm", "setting": "[4]; inhibitor 500 µM, KanaA 8 µg.mL-1", "result": 0.2940}, {"measurement": "OD600nm", "setting": "[4]; inhibitor 500 µM, KanaA 16 µg.mL-1", "result": 0.2905}, {"measurement": "OD600nm", "setting": "[4]; inhibitor 500 µM, KanaA 32 µg.mL-1", "result": 0.2029}, {"measurement": "OD600nm", "setting": "[4]; inhibitor 500 µM, KanaA 64 µg.mL-1", "result": -0.00095}, {"measurement": "OD600nm", "setting": "[4]; inhibitor 500 µM, KanaA 128 µg.mL-1", "result": -0.0011}, {"measurement": "OD600nm", "setting": "[4]; inhibitor 500 µM, KanaA 256 µg.mL-1", "result": -0.0012}, {"measurement": "OD600nm", "setting": "[4]; inhibitor 500 µM, KanaA 512 µg.mL-1", "result": -0.0016}, {"measurement": "OD600nm", "setting": "[4]; inhibitor 500 µM, KanaA 1024 µg.mL-1", "result": -0.0014}, {"measurement": "OD600nm", "setting": "[4]; inhibitor 500 µM, KanaA 2048 µg.mL-1", "result": -0.00065}, {"measurement": "OD600nm", "setting": "[4]; inhibitor 500 µM, KanaA 4096 µg.mL-1", "result": 0.0022}, {"measurement": "concentration in cell lysate", "setting": "E. coli ΔtolC strain", "result": "0.581 ng/mL and 1.48 ng/mL"}, {"measurement": "concentration in periplasm", "setting": "E. coli ΔtolC strain", "result": "3.09 ng/mL and 1.78 ng/mL and 1.06 ng/mL"}, {"measurement": "concentration in cell lysate", "setting": "K. pneumoniae ATCC 43816", "result": 9.73, "unit": "ng/mL"}, {"measurement": "concentration in cell lysate", "setting": "E. coli ATCC 25922", "result": "0.711 ng/mL and 1.14 ng/mL and 1.54 ng/mL"}, {"measurement": "concentration in cytoplasm", "setting": "E. coli ATCC 25922", "result": "0.701 ng/mL and 1.65 ng/mL and 0.652 ng/mL"}, {"measurement": "concentration in cell lysate", "setting": "P. aeruginosa ATCC 27853", "result": "1.4 ng/mL and 1.24 ng/mL"}, {"measurement": "ΔTm (°C) at 500 µM", "setting": "APH(2”)-IVa [3]", "result": 1.20, "unit": "°C"}]}]}
